The record followed here is publication PMC11513920, “Building Metabolically Stable and Potent Anti-HIV Thioether-Lipid Analogues of Tenofovir Exalidex: A thorough Pharmacological Analysis” (Journal of Medicinal Chemistry, 2024).

Some results are limits rather than exact numbers.

The data set relates to HIV-1 subtype C strain MJ4. The data set is described as follows: Single-cycle non-replicating HIV pseudoviral luciferase assay in HEK293T cells. Conditions: CC50/HIV (MJ4) IC50.

As to `CCCCCCCCCCCCCSCCCCCCOP(=O)(O)CO[C@H](C)Cn1cnc2c(N)ncnc21.N` [2c], the therapeutic index is above 1370.
The value for `CCCCCCCCCCSCCCCCCCCCOP(=O)(O)CO[C@H](C)Cn1cnc2c(N)ncnc21.N` [2d] was above 1720.
In the case of `CCCCCCCSCCCCCCCCCCCCOP(=O)(O)CO[C@H](C)Cn1cnc2c(N)ncnc21.N` [2e], the therapeutic index is given as above 296.
The value for `CCCCSCCCCCCCCCCCCCCCOP(=O)(O)CO[C@H](C)Cn1cnc2c(N)ncnc21.N` [2f] was above 331.
With `CCCCCCCCCCCCCCSCCCOP(=O)(O)CO[C@H](C)Cn1cnc2c(N)ncnc21.N` [2h], the therapeutic index is on record as >16,700.
Compound `C#CCCCCCCCCCCCCCCSCCCOP(=O)(O)CO[C@H](C)Cn1cnc2c(N)ncnc21` [15b] registered a therapeutic index above 3570.
For `C[C@H](Cn1cnc2c(N)ncnc21)OCP(=O)(O)OCCCSCCCCCCCCCCCCC#C[Si](C)(C)C.N` [15c] the value was above 4170; for `C[C@H](Cn1cnc2c(N)ncnc21)OCP(=O)(O)OCCCSCCCCCCCCCCCCC#CC(C)(C)C.N` [15e], above 516; for `C[C@H](Cn1cnc2c(N)ncnc21)OCP(=O)(O)OCCCSCCCCCCCCCCC#Cc1ccccc1.N` [15f], >12,500.
The value for `C[C@H](Cn1cnc2c(N)ncnc21)OCP(=O)(O)OCCCSCCCCCCCCCCC#Cc1ccc(F)cc1.N` [15g] was >10,000.
For `C[C@H](Cn1cnc2c(N)ncnc21)OCP(=O)(O)OCCCSCCCCCCCCCCC#CC1CCCCC1.N` [15h] the value was above 7580.
Turning to `C[C@H](Cn1cnc2c(N)ncnc21)OCP(=O)(O)OCCCSCCCCCCCCCCCCc1ccccc1.N` [16f], the therapeutic index is reported as >12,500.
In turn, `C[C@H](Cn1cnc2c(N)ncnc21)OCP(=O)(O)OCCCSCCCCCCCCCCCCc1ccc(F)cc1.N` [16g] gave a therapeutic index above 8065.
On to `C[C@H](Cn1cnc2c(N)ncnc21)OCP(=O)(O)OCCCSCCCCCCCCCCCCC1CCCCC1.N` [16h], for which the therapeutic index is given as 6250.
For `C[C@H](Cn1cnc2c(N)ncnc21)OCP(=O)(O)OCCCSCCCCCCCCCCCOc1ccccc1.N` [23a] the value was >11,100; for `C[C@H](Cn1cnc2c(N)ncnc21)OCP(=O)(O)OCCCSCCCCCCCCCCCSc1ccccc1.N` [23b], above 2000.
With `C[C@H](Cn1cnc2c(N)ncnc21)OCP(=O)(O)OCCCSCCCCCCCCCCCOC1CCCCC1.N` [23d], the therapeutic index was above 542.
`COC(=O)CCCCCCCCCCCCCCCSCCCOP(=O)(O)CO[C@H](C)Cn1cnc2c(N)ncnc21.N` [23e] registered a therapeutic index above 70.
